The source of these data is ChEMBL document CHEMBL3259643 (Eur J Med Chem, 2014).

The nature of this assay: Antiviral activity against oseltamivir-resistant Influenza A virus (A/WSN/1933(H1N1)) harboring neuraminidase H275Y mutant infected in MDCK cells assessed as protection against viral infection-mediated cytopathic effect after 48 to 72 hrs.

Usually EC50 stands for the concentration that produces a half-maximal response. With `CCCCCCOP(=O)(O)C1=C[C@@H](OC(CC)CC)[C@H](NC(C)=O)[C@@H](NC(=N)N)C1`, the EC50 was 262 nM.
Then `CCCCOP(=O)(O)C1=C[C@@H](OC(CC)CC)[C@H](NC(C)=O)[C@@H](NC(=N)N)C1`, with 97 nM.
As for `CCC(CC)O[C@@H]1C=C(P(=O)(O)OCCCc2ccccc2)C[C@H](NC(=N)N)[C@H]1NC(C)=O`, the EC50 amounted to 224 nM.
For `CCCCOP(=O)(O)C1=C[C@@H](OC(CC)CC)[C@H](NC(C)=O)[C@@H](N)C1`, the EC50 worked out at 9150 nM.
